## Share of PSTVd loop 15 variants by leaf site

The measurements come from Wu et al. 2024 (doi:10.1371/journal.ppat.1012142).

PSTVd intermediate strain, loop 15: wild type GGAAACCGCUACUAC, pool pattern GGAAACCGNNNNNNC; upper and lower strand joined, each 5' to 3', the first 7 letters being the upper strand, closing pairs included.

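Three N. benthamiana plants were inoculated with the whole mutant pool. Samples came from the inoculated region at 5 days, the leaf margin at 10 and upper systemic leaves at 12.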

Numbers give reads per thousand; 0 = not seen among the reads, higher = more abundant.
Each site shows the three plants.
"Pool" is the share in the plasmid pool used as inoculum, on the same scale.
The inoculated region was read from the minus strand, the other sites from the plus strand.
IR is the inoculated region, LM the leaf margin, Sys the systemic leaves.

| sequence | pool | IR | LM | Sys |
|---|---|---|---|---|
| GGAAACCGUAACGCC | 0.224 | 0.0491 / 0.0964 / 0.152 | 0.0162 / 0.0223 / 0.0200 | 0 / 0 / 0 |
| GGAAACCGUAACGGC | 0.288 | 0.147 / 0.161 / 0.133 | 0.0323 / 0.0223 / 0.0200 | 0 / 0 / 0 |
| GGAAACCGUAACGUC | 0.224 | 0.0655 / 0.0643 / 0.133 | 0 / 0 / 0.0200 | 0 / 0 / 0 |
| GGAAACCGUAACUAC | 0.128 | 0.262 / 0.305 / 0.305 | 0.0970 / 0.111 / 0.140 | 0.0161 / 0 / 0.0456 |
| GGAAACCGUAACUCC | 0.224 | 0.393 / 0.289 / 0.267 | 0.0970 / 0.0668 / 0.220 | 0.0161 / 0 / 0 |
| GGAAACCGUAACUGC | 0.240 | 0.541 / 0.594 / 0.457 | 0.113 / 0.156 / 0.0801 | 0.0322 / 0.121 / 0.160 |
| GGAAACCGUAACUUC | 0.224 | 0.753 / 0.739 / 0.590 | 0.194 / 0.156 / 0.140 | 0.0644 / 0.106 / 0.205 |
| GGAAACCGUAAGAAC | 0.144 | 0.459 / 0.402 / 0.438 | 0.113 / 0.445 / 0.160 | 0.0161 / 0.0454 / 0.114 |
| GGAAACCGUAAGACC | 0.192 | 0.0983 / 0.161 / 0.0190 | 0 / 0.0223 / 0 | 0 / 0 / 0 |
| GGAAACCGUAAGAGC | 0.256 | 0.426 / 0.305 / 0.324 | 0.113 / 0.178 / 0.160 | 0.0161 / 0 / 0 |
| GGAAACCGUAAGAUC | 0.224 | 0.491 / 0.321 / 0.267 | 0.0970 / 0.156 / 0.100 | 0.0483 / 0.0454 / 0.0912 |
| GGAAACCGUAAGCAC | 0.208 | 0.278 / 0.273 / 0.476 | 0.0808 / 0.0891 / 0.100 | 0.0161 / 0.136 / 0.0912 |
| GGAAACCGUAAGCCC | 0.272 | 0.0819 / 0.161 / 0.0762 | 0 / 0.0668 / 0.0401 | 0 / 0 / 0 |
| GGAAACCGUAAGCGC | 0.224 | 0.0983 / 0.112 / 0.0571 | 0 / 0 / 0.0200 | 0 / 0 / 0 |
| GGAAACCGUAAGCUC | 0.224 | 0.393 / 0.209 / 0.381 | 0.0970 / 0.0891 / 0.160 | 0.0322 / 0 / 0 |
| GGAAACCGUAAGGAC | 0.208 | 0.229 / 0.434 / 0.438 | 0.0808 / 0.0223 / 0.140 | 0.0966 / 0.0454 / 0.0684 |
| GGAAACCGUAAGGCC | 0.208 | 0.0655 / 0.112 / 0.114 | 0 / 0 / 0 | 0 / 0 / 0 |
| GGAAACCGUAAGGGC | 0.176 | 0.131 / 0.112 / 0.0952 | 0 / 0.0223 / 0 | 0 / 0 / 0 |
| GGAAACCGUAAGGUC | 0.240 | 0.344 / 0.225 / 0.305 | 0.0485 / 0.0445 / 0.0401 | 0.0322 / 0.0151 / 0.0684 |
| GGAAACCGUAAGUAC | 0.240 | 0.229 / 0.289 / 0.495 | 0.129 / 0.111 / 0.0601 | 0.0805 / 0 / 0 |
| GGAAACCGUAAGUCC | 0.208 | 0.213 / 0.273 / 0.305 | 0.113 / 0.0445 / 0.120 | 0.0805 / 0.0151 / 0.114 |
| GGAAACCGUAAGUGC | 0.240 | 0.360 / 0.289 / 0.343 | 0.129 / 0.0891 / 0.0801 | 0.0483 / 0.0454 / 0.0228 |
| GGAAACCGUAAGUUC | 0.256 | 0.229 / 0.289 / 0.343 | 0.146 / 0.0891 / 0.180 | 0.0483 / 0.0151 / 0.114 |
| GGAAACCGUAAUAAC | 0.272 | 0.229 / 0.241 / 0.324 | 0.0970 / 0.0668 / 0.160 | 0.0161 / 0.121 / 0.0912 |
| GGAAACCGUAAUACC | 0.240 | 0.0983 / 0.112 / 0.0381 | 0 / 0 / 0.0601 | 0.0161 / 0 / 0 |
| GGAAACCGUAAUAGC | 0.304 | 0.0655 / 0.0482 / 0.171 | 0.0162 / 0 / 0.0200 | 0 / 0 / 0 |
| GGAAACCGUAAUAUC | 0.272 | 0.262 / 0.257 / 0.324 | 0.0970 / 0.0668 / 0.200 | 0.0483 / 0.0756 / 0.0228 |
| GGAAACCGUAAUCAC | 0.192 | 0.213 / 0.402 / 0.362 | 0.0323 / 0.134 / 0.200 | 0 / 0.0756 / 0.137 |
| GGAAACCGUAAUCCC | 0.208 | 0.0328 / 0.0321 / 0.0762 | 0.0162 / 0 / 0 | 0 / 0 / 0 |
| GGAAACCGUAAUCGC | 0.272 | 0.0655 / 0.0643 / 0.0952 | 0 / 0 / 0.0200 | 0 / 0 / 0 |
| GGAAACCGUAAUCUC | 0.224 | 0.0491 / 0.129 / 0.0571 | 0.0323 / 0 / 0 | 0 / 0 / 0 |
| GGAAACCGUAAUGAC | 0.208 | 0.0819 / 0.112 / 0.0952 | 0 / 0 / 0 | 0 / 0 / 0 |
| GGAAACCGUAAUGCC | 0.224 | 0.0655 / 0.0803 / 0.152 | 0 / 0 / 0 | 0 / 0 / 0 |
| GGAAACCGUAAUGGC | 0.400 | 0.0983 / 0.145 / 0.0762 | 0.0162 / 0.0223 / 0.0601 | 0 / 0 / 0 |
| GGAAACCGUAAUGUC | 0.320 | 0.213 / 0.241 / 0.228 | 0 / 0 / 0 | 0 / 0 / 0 |
| GGAAACCGUAAUUAC | 0.160 | 0.524 / 0.546 / 0.628 | 0.162 / 0.0668 / 0.240 | 0.0322 / 0.0605 / 0.205 |
| GGAAACCGUAAUUCC | 0.0800 | 0.295 / 0.337 / 0.400 | 0.0808 / 0.0445 / 0.140 | 0.0644 / 0.136 / 0.0456 |
| GGAAACCGUAAUUGC | 0.176 | 0.311 / 0.321 / 0.400 | 0.113 / 0.0668 / 0.0801 | 0.0161 / 0.0303 / 0.137 |
| GGAAACCGUAAUUUC | 0.192 | 0.278 / 0.225 / 0.419 | 0.0808 / 0.0668 / 0.200 | 0.0644 / 0.0605 / 0.0228 |
| GGAAACCGUACAAAC | 0.144 | 0.0819 / 0.0482 / 0.0190 | 0 / 0.0223 / 0.0401 | 0.0161 / 0 / 0 |
| GGAAACCGUACAACC | 0.176 | 0.0491 / 0.0643 / 0.0762 | 0 / 0.0223 / 0.0401 | 0 / 0 / 0 |
| GGAAACCGUACAAGC | 0.256 | 0.0819 / 0.161 / 0.133 | 0.0162 / 0 / 0.0200 | 0.0161 / 0 / 0 |
| GGAAACCGUACAAUC | 0.288 | 0.0983 / 0.112 / 0.0571 | 0.0162 / 0 / 0.0200 | 0 / 0 / 0 |
| GGAAACCGUACACAC | 0.272 | 0.147 / 0.0964 / 0.0571 | 0 / 0 / 0 | 0.0161 / 0 / 0 |
| GGAAACCGUACACCC | 0.272 | 0.0983 / 0.112 / 0.0571 | 0 / 0.0223 / 0.0200 | 0 / 0 / 0 |
| GGAAACCGUACACGC | 0.320 | 0.0819 / 0.0643 / 0.209 | 0.0162 / 0 / 0 | 0 / 0 / 0.0228 |
| GGAAACCGUACACUC | 0.176 | 0.180 / 0.112 / 0.0952 | 0 / 0 / 0.0200 | 0 / 0 / 0 |
| GGAAACCGUACAGAC | 0.112 | 0.0819 / 0.0964 / 0.114 | 0 / 0 / 0 | 0 / 0 / 0 |
| GGAAACCGUACAGCC | 0.192 | 0.0819 / 0.112 / 0.171 | 0 / 0 / 0.0200 | 0 / 0 / 0 |
| GGAAACCGUACAGGC | 0.144 | 0.115 / 0.145 / 0.0381 | 0 / 0 / 0.0200 | 0 / 0 / 0 |
| GGAAACCGUACAGUC | 0.160 | 0.0655 / 0.0964 / 0.0381 | 0 / 0 / 0 | 0 / 0 / 0 |
| GGAAACCGUACAUAC | 0.240 | 0.246 / 0.225 / 0.267 | 0.162 / 0.0668 / 0.120 | 0.0644 / 0.0454 / 0.0684 |
| GGAAACCGUACAUCC | 0.240 | 0.0655 / 0.0964 / 0.0762 | 0 / 0 / 0.0200 | 0 / 0 / 0 |
| GGAAACCGUACAUGC | 0.144 | 0.147 / 0.0803 / 0.114 | 0.0162 / 0 / 0.0200 | 0 / 0 / 0 |
| GGAAACCGUACAUUC | 0.224 | 0.278 / 0.225 / 0.324 | 0.113 / 1.83 / 0.120 | 0.0322 / 0 / 0 |
| GGAAACCGUACCAAC | 0.224 | 0.131 / 0.0964 / 0.0762 | 0 / 0 / 0 | 0 / 0 / 0 |
| GGAAACCGUACCACC | 0.192 | 0.0655 / 0.0643 / 0.0952 | 0.0162 / 0 / 0 | 0 / 0 / 0 |
| GGAAACCGUACCAGC | 0.224 | 0.0655 / 0.112 / 0.0381 | 0.0162 / 0 / 0.0200 | 0 / 0 / 0 |
| GGAAACCGUACCAUC | 0.240 | 0.131 / 0.0964 / 0.171 | 0.0162 / 0 / 0 | 0 / 0 / 0 |
| GGAAACCGUACCCAC | 0.192 | 0.0491 / 0.112 / 0.114 | 0 / 0 / 0.0401 | 0 / 0 / 0 |
| GGAAACCGUACCCCC | 0.272 | 0.0655 / 0.145 / 0.0762 | 0 / 0 / 0 | 0 / 0 / 0 |

The authors trace changes outside the varied positions to PCR and sequencing errors or to mutation in the plant; presence does not show that a variant is infectious alone.
For reference, wild type rose from 33.9 per thousand in the pool to 202, 200, 159 (inoculated region), 724, 746, 710 (leaf margin) and 856, 883, 880 (systemic leaves).
Samples held 43,870 to 66,106 reads, so the smallest values rest on one or two reads.